PubChem BioAssay AID624099 | ICCB-Longwood – 2012
Shown is one part, drawn at random, of about 21,000 reagents. 497 of all reagents (2.4%) were called active. 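Higher z means weaker E2 silencing; only reporter increases were scored, and knock-downs that hurt cell survival may mask genuine repressor factors.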 Reagents against one gene are numbered here.

Assay: 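Host factors E2 relies on to silence an HPV18 LCR reporter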 (primary screen)
Cells: human C33A cervical carcinoma cells (HPV-negative) stably expressing BPV1 E2 and an HPV18 LCR luciferase reporter
Reagent: siRNA pool against human genes, 40 nM
Timing: 72 h
Read-out: 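HPV18 LCR reporter light per well, converted to plate-wise z-scores that exclude control wells, and averaged over triplicate plates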
Reading the numbers: mean z-score and z-score: higher = stronger reporter signal, weaker E2 silencing
Hit rule: 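Mean z ≥ 2 together with z ≥ 2 in two or more of the three replicates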

| target gene | reagent | mean z-score | z-score, replicate A | z-score, replicate B | z-score, replicate C | outcome |
| --- | --- | --- | --- | --- | --- | --- |
| ITM2B (GeneID 9445) | 1 | -0.43 | -0.3 | -0.4 | -0.59 | inactive |
| WDR1 (GeneID 9948) | 1 | 0.8 | 1.12 | 0.71 | 0.56 | inactive |
| PPM1G (GeneID 5496) | 1 | 0.31 | 0.36 | 0.35 | 0.23 | inactive |
| PAK1 (GeneID 5058) | 1 | 0.64 | 0.58 | 0.62 | 0.72 | inactive |
| CPEB1 (GeneID 64506) | 1 | -0.03 | 0.09 | 0.04 | -0.23 | inactive |
| CCDC32 (GeneID 90416) | 1 | 0.26 | 0.2 | -0.15 | 0.72 | inactive |
| CALCRL (GeneID 10203) | 1 | -0.22 | -0.39 | -0.1 | -0.19 | inactive |
| OR4K14 (GeneID 122740) | 1 | -1.56 | -1.01 | -1.73 | -1.95 | inactive |
| P2RX5 (GeneID 5026) | 1 | -0.69 | -0.59 | -0.84 | -0.64 | inactive |
| MIER1 (GeneID 57708) | 1 | -0.53 | -0.33 | -0.61 | -0.66 | inactive |
| SBK1 (GeneID 388228) | 1 | 1 | 0.99 | 0.69 | 1.31 | inactive |
| ZNF232 (GeneID 7775) | 1 | -0.04 | -0.17 | 0.18 | -0.13 | inactive |
| IKBKB (GeneID 3551) | 1 | 1.48 | 1.44 | 1.47 | 1.53 | inactive |
| PON2 (GeneID 5445) | 1 | 0.84 | 0.82 | 1.04 | 0.67 | inactive |
| YRDC (GeneID 79693) | 1 | -0.71 | -0.88 | -0.78 | -0.47 | inactive |
| AGTR2 (GeneID 186) | 1 | 1.22 | 0.92 | 1.49 | 1.26 | inactive |
| MOSMO (GeneID 730094) | 1 | -1.76 | -1.7 | -2.03 | -1.55 | inactive |
| ZNF282 (GeneID 8427) | 1 | -0.08 | 0.23 | -0.14 | -0.32 | inactive |
| P2RY10 (GeneID 27334) | 1 | -0.81 | -0.65 | -0.68 | -1.1 | inactive |

Records above whose gene name begins with P or p (5):
| target gene | reagent | mean z-score | z-score, replicate A | z-score, replicate B | z-score, replicate C | outcome |
| --- | --- | --- | --- | --- | --- | --- |
| PPM1G (GeneID 5496) | 1 | 0.31 | 0.36 | 0.35 | 0.23 | inactive |
| PAK1 (GeneID 5058) | 1 | 0.64 | 0.58 | 0.62 | 0.72 | inactive |
| P2RX5 (GeneID 5026) | 1 | -0.69 | -0.59 | -0.84 | -0.64 | inactive |
| PON2 (GeneID 5445) | 1 | 0.84 | 0.82 | 1.04 | 0.67 | inactive |
| P2RY10 (GeneID 27334) | 1 | -0.81 | -0.65 | -0.68 | -1.1 | inactive |

The results go on:
| target gene | reagent | mean z-score | z-score, replicate A | z-score, replicate B | z-score, replicate C | outcome |
| --- | --- | --- | --- | --- | --- | --- |
| ESRRB (GeneID 2103) | 1 | -0.76 | -0.64 | -0.7 | -0.93 | inactive |
| EVI2A (GeneID 2123) | 1 | 2.23 | 1.93 | 1.98 | 2.8 | inactive |
| DCAF12L1 (GeneID 139170) | 1 | -1.64 | -1.87 | -1.51 | -1.55 | inactive |
| EXO5 (GeneID 64789) | 1 | 0.53 | 0.41 | 0.65 | – | inactive |
| LINC01144 (GeneID 400752) | 1 | 1.08 | 1.24 | 0.89 | 1.12 | inactive |
| ATP23 (GeneID 91419) | 1 | -0.68 | -0.74 | -0.73 | -0.56 | inactive |
| CDX2 (GeneID 1045) | 1 | -0.42 | -0.59 | -0.33 | -0.36 | inactive |
| CRYGS (GeneID 1427) | 1 | 0.46 | 0.49 | 0.35 | 0.53 | inactive |
| NTN4 (GeneID 59277) | 1 | -0.03 | 0.06 | 0 | -0.16 | inactive |
| SUN3 (GeneID 256979) | 1 | 0.14 | 0.09 | 0.37 | -0.06 | inactive |
| PTPRN (GeneID 5798) | 1 | 0.99 | 1.34 | 0.8 | 0.84 | inactive |
| IER5L (GeneID 389792) | 1 | -0.47 | -0.39 | -0.33 | -0.67 | inactive |
| LOC388444 (retired record) (GeneID 388444) | 1 | -0.67 | -0.58 | -0.76 | -0.68 | inactive |
| CCAR1 (GeneID 55749) | 1 | -0.96 | -1.21 | -1.25 | -0.42 | inactive |
| LOC389777 (retired record) (GeneID 389777) | 1 | 1.16 | 1.01 | 1.17 | 1.3 | inactive |
| SDF2L1 (GeneID 23753) | 1 | 0.58 | 0.66 | 0.56 | 0.52 | inactive |
| TFPI (GeneID 7035) | 1 | 0 | -0.04 | 0.09 | -0.05 | inactive |
| H2AC14 (GeneID 8331) | 1 | -1.48 | -1.21 | -1.58 | -1.66 | inactive |
| ELFN1 (GeneID 392617) | 1 | -0.14 | -0.12 | -0.1 | -0.2 | inactive |
| ELFN1 (GeneID 392617) | 2 | -0.2 | 0.02 | -0.11 | -0.5 | inactive |
